Values quoted from earlier work, collected in PMC12406664, “New derivatives of 6-nitrocoumarin-3-thiosemicarbazone exhibit improved antiparasitic activity in the placenta against Trypanosoma cruzi and Toxoplasma gondii” (Antimicrobial Agents and Chemotherapy, 2025).

Assays:
[1] = test system: T. gondii; design: method as in ref 26 (a), 34 (e), 38 (f); conditions: Fig. 2 literature compounds, ref 26 (a), 34 (e), 38 (f); cited from earlier work
[2] = test system: T. cruzi; design: method as in ref 28 (b), 32, 33 (c, d); conditions: Fig. 2 literature compounds, ref 28 (b), 32, 33 (c, d); cited from earlier work

| Structure (SMILES) | SI = EC50 (mammalian cell model) / IC50 (parasite) [1] | SI = EC50 (mammalian cell model) / IC50 (parasite) [2] |
| --- | --- | --- |
| O=C(O)c1cn(C2CC2)c2cc(N3CCN(Cc4ccc([N+](=O)[O-])o4)CC3)c(F)cc2c1=O [f] | 7 |  |
| C/C(=N\N=C1\NC(=O)CS1)c1cc2ccccc2oc1=O [e] | > 70 |  |
| COc1ccc(/C(COc2ccc(F)cc2)=N\NC(N)=S)cc1 [a] | 19 |  |
| O=C(Cc1c([N+](=O)[O-])c(=O)oc2ccccc12)c1cccnc1 [c] |  | 1.46 |
| O=c1oc2c(O)c(O)ccc2cc1-c1ccccc1O [d] |  | 1.73 |
